In BindingDB's records for 34798775 (2021):

Target: Replicase polyprotein 1ab (Severe acute respiratory syndrome coronavirus, UniProt P0C6X7)
Test: ASSAY_NAME: Various Assay DESCRIPTION: This is a review article. Please point to the original journal.

COc1ccccc1NCC(=O)N[C@@H](CC(C)C)C(=O)N[C@@H](C[C@@H]1CCNC1=O)C(=O)c1nc2ccccc2s1
Ki: 330 nM

CC(C)C[C@H](NC(=O)COc1ccccc1)C(=O)N[C@@H](C[C@@H]1CCNC1=O)C(=O)c1nc2ccccc2s1
Ki: 560 nM

COc1ccc(CC(=O)N[C@@H](CC(C)C)C(=O)N[C@@H](C[C@@H]2CCNC2=O)C(=O)c2nc3ccccc3s2)cc1
Ki: 420 nM

Nc1ccccc1C(=O)On1nnc2ccccc21
Ki: 20 nM
